Measured values: publication PMC11236705 (2024)

T1: Clostridium perfringens enterotoxin (CpE) (Clostridium perfringens, UniProt P01558 1-319)
T1 chain: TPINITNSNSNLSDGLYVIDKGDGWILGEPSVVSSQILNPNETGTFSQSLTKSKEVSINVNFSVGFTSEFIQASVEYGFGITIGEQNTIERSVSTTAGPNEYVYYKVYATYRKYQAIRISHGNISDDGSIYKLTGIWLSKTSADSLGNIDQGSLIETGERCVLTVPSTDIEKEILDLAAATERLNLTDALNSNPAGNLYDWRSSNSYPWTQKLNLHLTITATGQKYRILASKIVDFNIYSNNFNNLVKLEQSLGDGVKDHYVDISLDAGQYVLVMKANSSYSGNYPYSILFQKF

B1: CLN4_20, soluble analogue of human claudin-4 (other)
chain: MSSLETFREARRLAREGLELVREAARLPMWRVTAFIGSNIVTSQTIWEGLWMNCVVQSTGQMQCKVYDSLLALPEDLRRARESFERAIEVAEKALELLEIGDPDSDAIEDEEERLQTIHEAGELLLKAAELAREPTEAIADRIIQDFYNPLVASGQKREMGASLALARRGAELLEEAGRKLLGLEGGSLEHHHHHH
B2: CLN1_18, soluble analogue of human claudin-1 (other)
chain: MEKEKRIKEALETAKKGLKLAEEAYRNPQWRIYSYAGDNIVTAQAMYEGLWMSCVSQSTGQIQCKVFDSLLNLSSTLQETRKKVEEGIELGKKAIEIAEEGDPRNPKYKDNPELQLELIKKGAELFLKAGELVREAVETYGARIEQEFNDPMTPVNARYEFGQALETGRKAAELIIRGAEGLLNTTEE

Target: T1, Clostridium perfringens enterotoxin …
Experiment: BLI

Binder	Kd [nM]
B1	300
B2	3200
